Patent US6699834B1, “Method for treating cancer” (University of Maryland Biotechnology Institute, priority 1997, dated 2004)
Like-named read-outs stand apart in the source and are kept apart here.

Columns and labels:
HIV-1 = conditions: for HIV in vitro Inhibition: inhibition of HIV-1 replication in vitro (HIV-1 strains and HIV-1 primary isolates)
Source text: To prepare HIV infected cells for the in vitro assay of hCG preparations and β-hCG peptides and derivatives, primary PBMCs, macrophages, and CD4^+ T cells isolated from peripheral blood and the H9 human T cell line, were acutely or chronically infected with 8 different HIV-1 strains: 4 cell line adapted viruses, namely the macrophage tropic Ba-L strain (Gartner et al., 1986, Science 233:215-219) and the CD4^+ T cell tropic MN, RF, and IIIB strains (10^5 TCID50/ml) (Popovic et al., 1984, Science […]; Gallo et al.; 1984, Science 224:500-503); 2 isolates, Ju1083 and G3, from Nigerian AIDS patients passed once in a CD4^+ T cell line (Sub-T1); and 2 primary (“clinical”) isolates from AIDS patients from Trinidad which were never passed in any cell line and were used at a titer of 7.5×10^4TCID50/ml. In all experiments; HIV1 (10^5 TCID50/ml) was added to the cells(10^6 cells/ml) for a 2 hour incubation after which the virus infected cells were washed with 10 ml phosphate buffered saline (PBS) three times to eliminate extra cellular virus. The test inhibitor, i.e. the hCG or β-hCG peptide preparation was then added and the cells were incubated with the test inhibiter for 9 to 10 days with serial sampling. Cultures were assayed for p24 antigen on days 3 to 10.
Peptides of the α- and β-subunits (0.05 to 50 nmoles/ml), native α chain preparation, and various crude preparations of the native hCG heterodimer (0.01 to 1,000 IU) and the native β-hCG subunit (100 to 1,000 μg) were tested for effects on HIV-1 replication in acutely infected cells-by measuring change in viral antigen levels in response to the above noted preparations (FIGS. 4A-D and Table 3).
The fractions were then tested for anti-HIV, anti-KS and pro-hematopoietic activities in vitro. To assay for inhibition of HIV-1 replication in vitro, the HIV-1 […] viral strain was used to infect PBMCs and PM-1 cells (derived from the HUT-78 T-cell lymphoma cell line) at 10^3 TCID50/ml as described in detail herein.

[1] = tested on: HIV RNA and protein expression; test: HIV RNA and protein expression in HIV-1 transgenic mice; format: in vivo; conditions: for inhibition of HIV RNA and protein expression: inhibition of HIV RNA and protein expression in HIV-1 transgenic mice
Source text: (§1) The HIV-1 transgenic mice used for this study contain 7.4 kb of foreign DNA, including 5.1 kb of the HIV-1 proviral genome deleted in the gag and pol genes and 2.3 kb of vector (Dickie et al., 1991, Virology 185:109-119). […] In addition, these mice develop severe hyperkeratotic skin lesions with marked expression of gp 120 and nef genes (Kopp et al., 1993, AIDS Res. Hum. Retroviruses 9:267-275; Vasli et al., 1994, AIDS Res. Hum. Retroviruses 10:1241-1250).
Heterozygous transgenic mothers were treated with the hCG preparation subcutaneously twice weekly. Pups received hCG via the mother's milk.
Gene expression was assayed in total RNA extracted from the skin of Tg26 mice with RNAzol. One microgram of RNA was reverse transcribed into cDNA using random hexamer primers and […] reverse transcriptase (Life Technologies, MD) in a final volume of 30 μl. One tenth of the cDNA reactions were used for PCR amplification of various HIV gene sequences (env, tat, rev, nef and vif). In addition, glyceraldehyde 3-phosphate dehydrogenase (GAPHD) mRNA was amplified for each sample for normalization. Following 25 cycles of amplification, 10% of the PCR product was resolved by electrophoresis through 2% agarose gels and processed for Southern hybridization using FITC-labeled oligonucleotide probes complimentary to internal sequences of the amplicons. Detection was performed by chemiluminescence (Amersham) and relative mRNA levels determined by densitometry after normalization with GAPDH mRNA levels.
(§2) Finally, certain fractions were tested for their ability to increase survival, promote weight gain and reduce HIV-1 gene expression in HIV-1 transgenic mice as described herein.

HIV-1 transgenic mice = test: Survival, growth and weight of HIV-1 transgenic mouse pups; format: in vivo; conditions: for survival at 10 days after birth: administered first 5 days after birth through mothers milk
Method: as §1, §2
HIV-I transgenic pups administered hCG and hCG-related preparations for the first 5 days after birth through the mothers milk were monitored for survival at 10 days after birth.

Substance	HIV in vitro Inhibition (HIV-1)	inhibition of HIV RNA and protein expression [1]	survival at 10 days after birth (HIV-1 transgenic mice)	other results
rαhCG: recombinant α subunit expressed in mouse cells (Sigma)	− (“−” represents less than 10% effect)	− (“−” represents less than 10% effect)		
αhCG: purified native α subunit of hCG (Sigma)	− (“−” represents less than 10% effect)	− (“−” represents less than 10% effect)	failed to promote survival	weight gain / growth retardation and cachexia (HIV-1 transgenic mice; HIV-1 transgenic pups): no effect; inhibition of HIV-1 infection/replication in vitro (in words) (HIV-1; listed as Native α-hCG): little or no effect; HIV-1 gene / protein expression in transgenic mice (in words) ([1]; pups dosed via mother's milk): no effect
CR1XY17V: highly purified hCG preparation from NICHD, NIH [reference compound]	− (“−” represents less than 10% effect)			
CR127: highly purified hCG preparation from NICHD, NIH [reference compound]	− (“−” represents less than 10% effect)		failed to promote survival	inhibition of HIV-1 infection/replication in vitro (in words) (HIV-1): little or no inhibition
LH: luteinizing hormone			to a lesser extent	
αfp1769A: purified, native α subunit (NICHD, NIH)	− (“−” represents less than 10% effect)			
rhCG: recombinant hCG expressed in a mouse cell line (Sigma)	− (“−” represents less than 10% effect)	− (“−” represents less than 10% effect)		
ORGANON: a highly purified hCG preparation obtained from Organon	− (“−” represents less than 10% effect)			
CR1XY17B: mixture of highly purified α-hCG and β-hCG from NICHD, NIH [reference compound]	− (“−” represents less than 10% effect)			inhibition of HIV-1 infection/replication in vitro (in words) (HIV-1): little or no inhibition
